# Human monoclonal antibodies against the spike receptor-binding domain (heavy:light variable regions). IC50 against pseudoviruses bearing the spike of naturally observed variants; lower = stronger; >10 µg/ml means not reached at the top dose. No active / inactive call. The stated detection limit is 0.0005 µg/ml; values near or below 0.001 µg/ml lie at the floor of the assay.
# B1: BD55-5164 (protein)
# chain 1: QLQLQESGPGLVKPSETLSLTCIVSRGSISSSSYFWAWVRQAPGKGLEWIGTIDYTGNTHYNTSLKSRVTISVDTSKNQFSLRLRSVTAADTALYFCSRQSAPPWGSSWGDYWGRGTLVTVSS
# chain 2: DIQMTQSPSSLSASVGDRVTISCQASQDISNYLNWYHQTPGKAPILLIFDASNLEAGVPSRFSGSGSGRHFSFTISSLQPEDTGTYYCQQYANLPALTFGGGTKVDIK
# B2: BD55-5182 (protein)
# chain 1: EVQLVESGGGLVKPGGSLRLSCAASGFTLSNAWMTWVRQAPGKGLEWIARIKGKVDGATRDYAAPVKGRFTISTDDSKTTLFLQMNTLKTEDTAVYFCTALFTSYDMLTGRAGGRGYWGQGTLVTVSS
# chain 2: NVMLTQPHSVSESPGKTVTISCTRSSGSIASNYVQWYQQRPGSAPTTVIYEDNQRPSGVPDRFSGSIDSSSNSASLTISGLETEDEADYYCQSFDSSNHMNWVFGGGTKLTVL
# B3: BD55-4662 (protein)
# chain 1: QVQLQESGPGLVKPSETLSLTCTVSGASISSYYWTWIRQPPGKGLEWIGYIYNSGSTDYSPRGSTNYSPSLESRVTISVDTSKNQFSLKLSSVTAADTAVYHCARHPWTEMATYRSAYYFDSWGQGTLVTVSS
# chain 2: QSALTQPASVSGSPGQSITISCTGTTSDVGAYNHVSWYQQHPGKAPNLMIYDVSERPSGVSDRFSASKSGNTASLTISGLQAEDEADYYCCSYAGRSTWMFGGGTKLTVL
# B4: BD55-5175 (protein)
# chain 1: QVQLVQSGPELKRPGASVKVSCETSGYTFTDYAINWVRQAPGQGLEWMGWINTNTGHPTYAQGFTGRFVFSVDMSDSTAYLQISSLKPADTAVYYCARDFQVPEGLDYWGQGTLVTVSS
# chain 2: DIVMTQSPATLSLSPGETATLSCRASYSFTSRLAWYQQKPGQAPRLLIHDASNRAPGVPARFSGSGSGTEFTLAISGLQSEDSAVYYCQQYHSWPLTFGQGTKVEIK
# B5: BD55-5170 (protein)
# chain 1: QVQLVESGGGVVQPGRSLRLSCVASGFTFNTYGMHWVRQVPGKGLEWVAVISYDGSNQIYGDSVKGRFTISRDNSKNTVYLQMNGLRAEDTAVYYCATPLHDYSGYDLFDYGYAMDVWGQGTTVTVSS
# chain 2: QSVLTQPPSASGTPGQRVTVSCSGSSSNIGSDYVYWYQQFPGTAPKLLIYRNSQRPSGVPDRFSGSKSGTSASLAISGLRSEDEADYYCAAWDGSISAWVFGGGTKLTVL
# B6: BD55-4483 (protein)
# chain 1: EVQLVESGGGLVQPGRSLRLTCAASGFAFDDHAMHWVRQAPGKGLEWVAGISWHSGSIGYGDSVKGRFTISRDNAKNSLYLQMNSLRAEDTALYYCAKESRFGYTGYDFLGVEAFDIWGQGTKVSVSS
# chain 2: QSVLTQPPSVSGAPGQTVTISCTGSSSNIGAGYDVHWYQQLPGTAPKLLIYGNTNRPSGVPDRFSGSKSGTSASLAITGLQAGDEADYYCQSFDSSLSGSTVFGGGTKVTVL
# Biological target: SARS-CoV-2 Omicron BA.1 spike pseudovirus
# Experiment: pseudovirus neutralization IC50; higher = weaker neutralization
# Procedure: (§1)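 Single-round VSV luciferase pseudovirus mixed with antibody dilutions for 1 h and put on Huh-7 cells for about a day; IC50 from the dose curve.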
row,Binder,pseudovirus neutralization IC50
1,B1,> 10 µg/mL
2,B2,> 10 µg/mL
3,B3,0.136 µg/mL
4,B4,> 10 µg/mL
5,B5,> 10 µg/mL
6,B6,> 10 µg/mL

# Biological target: SARS-CoV-2 Omicron BA.2 spike pseudovirus
# Experiment: as above
# Procedure: as §1
row,Binder,pseudovirus neutralization IC50
1,B1,> 10 µg/mL
2,B2,> 10 µg/mL
3,B3,0.118 µg/mL
4,B4,> 10 µg/mL
5,B5,> 10 µg/mL
6,B6,> 10 µg/mL

# Biological target: SARS-CoV-2 Omicron BA.2.75 spike pseudovirus
# Experiment: as above
# Procedure: as §1
row,Binder,pseudovirus neutralization IC50
1,B1,> 10 µg/mL
2,B2,> 10 µg/mL
3,B3,0.0751 µg/mL
4,B4,> 10 µg/mL
5,B5,> 10 µg/mL
6,B6,> 10 µg/mL

# Biological target: SARS-CoV-2 Omicron BA.5 spike pseudovirus
# Experiment: as above
# Procedure: as §1
row,Binder,pseudovirus neutralization IC50
1,B1,> 10 µg/mL
2,B2,> 10 µg/mL
3,B3,> 10 µg/mL
4,B4,> 10 µg/mL
5,B5,> 10 µg/mL
6,B6,> 10 µg/mL

# Biological target: SARS-CoV-2 Omicron BQ.1.1 spike pseudovirus
# Experiment: as above
# Procedure: as §1
row,Binder,pseudovirus neutralization IC50
1,B1,> 10 µg/mL
2,B2,> 10 µg/mL
3,B3,> 10 µg/mL
4,B4,> 10 µg/mL
5,B5,> 10 µg/mL
6,B6,> 10 µg/mL

# Biological target: SARS-CoV-2 Omicron XBB spike pseudovirus
# Experiment: as above
# Procedure: as §1
row,Binder,pseudovirus neutralization IC50
1,B1,> 10 µg/mL
2,B2,> 10 µg/mL
3,B3,> 10 µg/mL
4,B4,> 10 µg/mL
5,B5,> 10 µg/mL
6,B6,> 10 µg/mL

# Biological target: SARS-CoV-2 early D614G spike pseudovirus
# Experiment: as above
# Procedure: as §1
row,Binder,pseudovirus neutralization IC50
1,B1,2.19 µg/mL
2,B2,0.256 µg/mL
3,B3,0.00254 µg/mL
4,B4,0.001 µg/mL
5,B5,0.0218 µg/mL
6,B6,0.062 µg/mL
